Measured values from several laboratories, pooled; numbers as filed in NIAID ChemDB.

Common to all: whole-cell or culture tests; agent: Aspergillus fumigatus; read-out: zone

a–b is a range or a potency band.

| structure | tested at | method | strain | value |
|---|---|---|---|---|
| CCC(C)CCCCCCCCCCC(=O)N[C@H]1C[C@@H](O)[C@@H](O)NC(=O)C2[C@@H](O)[C@@H](C)CN2C(=O)C(CO)NC(=O)C([C@H](O)C(O)c2ccc(O)cc2)NC(=O)NC(=O)[C@@H]2C[C@@H](O)CN2C(=O)[C@H]([C@@H](C)O)NC1=O | 1 mg/mL | agar | AF-1 | 29 mm |
| Cc1c(N2C(=O)CSC23C(=O)N(CCCCCCBr)c2ccccc23)c(=O)n(-c2ccccc2)n1C | 100 µg/mL | agar diffusion | MTCC 343 | 0 mm |
| COc1ccc(Cc2ccc(OC)c(-c3nnc4sc(Cc5ccccc5)nn34)c2)cc1-c1nnc2sc(Cc3ccccc3)nn12 | 100 µg/disc | - | HIC 6094 | 22 mm |
| CC(=O)Nc1ccc(Br)cc1Sc1ncccc1[N+](=O)[O-] | 100 µg/mL | - | MTCC 343 | 14 mm |
| CCC(C)CCCCCCCCCCC(=O)N[C@H]1C[C@@H](O)[C@@H](N=[N+]=[N-])NC(=O)C2[C@@H](O)[C@@H](C)CN2C(=O)C(CO)NC(=O)C([C@H](O)C(N=[N+]=[N-])c2ccc(O)cc2)NC(=O)NC(=O)[C@@H]2C[C@@H](O)CN2C(=O)[C@H]([C@@H](C)O)NC1=O | 5 mg/mL | agar | AF-1 | 8–25 mm |
| CC(=O)Nc1ccc(Cl)cc1Sc1ncccc1[N+](=O)[O-] | 100 µg/mL | - | MTCC 343 | 12 mm |
| CCC(C)CCCCCCCCCCC(=O)N[C@H]1C[C@@H](O)[C@@H](S(=O)(=O)CC(=O)OC)NC(=O)C2[C@@H](O)[C@@H](C)CN2C(=O)C(CO)NC(=O)C([C@H](O)C(O)c2ccc(O)cc2)NC(=O)NC(=O)[C@@H]2C[C@@H](O)CN2C(=O)[C@H]([C@@H](C)O)NC1=O | 2 mg/mL | agar | AF-1 | 21 mm |
| COc1ccc(-c2nn3c(-c4cc(Cc5ccc(OC)c(-c6nnc7sc(-c8ccc(OC)cc8)nn67)c5)ccc4OC)nnc3s2)cc1 | 100 µg/disc | - | HIC 6094 | 12 mm |
| Cc1ccc(O)c(O)c1O | 100 µg/mL | - | - | 10 mm |
| Clc1ccc(COC(Cn2ccnc2)c2ccc(Cl)cc2Cl)c(Cl)c1 | 100 µg/mL | - | MTCC 343 | 15 mm |
| CCC(C)CCCCCCCCCCC(=O)N[C@H]1C[C@@H](O)[C@@H](OC)NC(=O)C2[C@@H](O)[C@@H](C)CN2C(=O)C(CO)NC(=O)C([C@H](O)C(O)c2ccc(O)cc2)NC(=O)NC(=O)[C@@H]2C[C@@H](O)CN2C(=O)[C@H]([C@@H](C)O)NC1=O | 1 mg/mL | agar | AF-1 | 25 mm |
| Cc1ccc2c(c1)C1(SCC(=O)N1c1c(C)n(C)n(-c3ccccc3)c1=O)C(=O)N2CCCCCCN1C(=O)C2(c3ccccc31)c1c(C)nn(-c3ccccc3)c1Oc1c2c(C)nn1-c1ccccc1 | 100 µg/mL | agar diffusion | MTCC 343 | 12 mm |
| Brc1ccc2c(c1)Sc1cccnc1N2CCCCCCN1c2ccc(Br)cc2Sc2cccnc21 | 100 µg/mL | - | MTCC 343 | 11 mm |
| COc1ccc(Cc2ccc(OC)c(-c3nnc4sc(Cc5ccc(Cl)cc5)nn34)c2)cc1-c1nnc2sc(Cc3ccc(Cl)cc3)nn12 | 100 µg/disc | - | HIC 6094 | 12 mm |
| Cc1nn(-c2ccccc2)c2c1C1(C(=O)N(CCCCCCN3C(=O)C4(SCC(=O)N4c4c(C)n(C)n(-c5ccccc5)c4=O)c4ccccc43)c3ccccc31)c1c(C)nn(-c3ccccc3)c1O2 | 100 µg/mL | agar diffusion | MTCC 343 | 13 mm |
| CCC(C)CCCCCCCCCCC(=O)N[C@H]1C[C@@H](O)[C@@H](OC)NC(=O)C2[C@@H](O)[C@@H](C)CN2C(=O)C(CO)NC(=O)C([C@H](O)C(OC)c2ccc(O)cc2)NC(=O)NC(=O)[C@@H]2C[C@@H](O)CN2C(=O)[C@H]([C@@H](C)O)NC1=O | 2 mg/mL | agar | AF-1 | 30 mm |
| Cc1nn(-c2ccccc2)c2c1C1(C(=O)N(CCCCCCN3C(=O)C4(SCC(=O)N4c4c(C)n(C)n(-c5ccccc5)c4=O)c4ccccc43)c3ccc(F)cc31)c1c(C)nn(-c3ccccc3)c1O2 | 100 µg/mL | agar diffusion | MTCC 343 | 14 mm |
| COc1ccc(Cc2ccc(OC)c(-c3nnc4sc(-c5ccc(C)cc5)nn34)c2)cc1-c1nnc2sc(-c3ccc(C)cc3)nn12 | 100 µg/disc | - | HIC 6094 | 8 mm |
| Cc1nn(-c2ccccc2)c2c1C1(C(=O)N(CCCCCCN3C(=O)C4(SCC(=O)N4c4c(C)n(C)n(-c5ccccc5)c4=O)c4cc(F)ccc43)c3ccccc31)c1c(C)nn(-c3ccccc3)c1O2 | 100 µg/mL | agar diffusion | MTCC 343 | 14 mm |
| C[C@H]1[C@H](O)[C@@H](C)/C=C/C=C/C=C/C=C/C=C/C=C/C=C/[C@H](O[C@@H]2O[C@H](C)[C@@H](O)[C@H](N)[C@@H]2O)C[C@@H]2O[C@](O)(C[C@@H](O)C[C@@H](O)CC[C@H](O)[C@@H](O)C[C@@H](O)CC(=O)O[C@H]1C)C[C@H](O)[C@H]2C(=O)O | 0.5 mg/disc | agar diffusion | - | 0 mm |
| CCC(C)CCCCCCCCCCC(=O)N[C@H]1C[C@@H](O)[C@@H]([n+]2cc[nH]c2)NC(=O)C2[C@@H](O)[C@@H](C)CN2C(=O)C(CO)NC(=O)C([C@H](O)C(O)c2ccc(O)cc2)NC(=O)NC(=O)[C@@H]2C[C@@H](O)CN2C(=O)[C@H]([C@@H](C)O)NC1=O | 5 mg/mL | agar | AF-1 | 30 mm |
| Cc1ccc2c(c1)C1(SCC(=O)N1c1c(C)n(C)n(-c3ccccc3)c1=O)C(=O)N2CCCCCCBr | 100 µg/mL | agar diffusion | MTCC 343 | 0 mm |

2 of the rows above, restated:

{"structure": "Cc1c(N2C(=O)CSC23C(=O)N(CCCCCCBr)c2ccccc23)c(=O)n(-c2ccccc2)n1C", "tested at": "100 µg/mL", "method": "agar diffusion", "strain": "MTCC 343", "value": "0 mm"}
{"structure": "CCC(C)CCCCCCCCCCC(=O)N[C@H]1C[C@@H](O)[C@@H]([n+]2cc[nH]c2)NC(=O)C2[C@@H](O)[C@@H](C)CN2C(=O)C(CO)NC(=O)C([C@H](O)C(O)c2ccc(O)cc2)NC(=O)NC(=O)[C@@H]2C[C@@H](O)CN2C(=O)[C@H]([C@@H](C)O)NC1=O", "tested at": "5 mg/mL", "method": "agar", "strain": "AF-1", "value": "30 mm"}

Rows are shuffled and stem from different studies. Zone: diameter of growth inhibition. Blank or dashed fields: not listed here.